Measurements as given in US20200170258A1 (SPOGEN BIOTECH, published 2020).

Target: Flagellin-sensing 3 (FLS3) of tomato (tomato)
Experiment: cell-based or functional assay

B1: Ps.tomato FlgII-28 (peptide)
peptide: ESTNILQRMRELAVQSRNDSNSATDREA
B1 was tested, and the “ROS activity in tomato leaf tissue, Average RLU value, 5 nM Flg polypeptide” value was 1.02e+06 RLU.
